The values that follow are results of earlier work, collected in PMC3930637.

In the data set the target is HIV-1 capsid (CA) CA (Human immunodeficiency virus 1) (UniProt O93182). Nature of the data set: ITC. Background: ITC needs no label: the signal is the heat of the interaction.

What is called Kd is the concentration at which binding is half-saturated. Consider Cyclophilin A (from UniProt P62937), for which the Kd was 7 µM.
